A mixed list of measured activities; the numbers were collected in NIAID ChemDB.

All rows: enzyme or target tests; agent: HIV-1; protein: Protease; read-out: IC50

An empty or dashed field is not shown. Neighbouring rows are from separate reports. ICn: concentration for n% inhibition.

structure	strain or isolate	result
CCC(C)(C)NC(=O)[C@@H]1CSCN1C(=O)[C@@H](O)[C@H](Cc1ccccc1)NC(=O)[C@H](CS(C)(=O)=O)NC(=O)COc1cccc2ccccc12		<0.05 µM
Cc1cc(N2COCC2=O)cc(C)c1OCC(=O)N[C@@H](Cc1ccccc1)C[C@H](O)[C@H](Cc1ccccc1)NC(=O)O[C@H]1CO[C@H]2OCC[C@H]21		<0.0005 µM
CC(C)CN(C[C@@H](O)[C@H](Cc1ccccc1)NC(=O)OCc1cccnc1)S(=O)(=O)c1ccccc1		0.005 µM
CC(=O)ONc1ccc(S(=O)(=O)N(CC(C)C)C[C@@H](O)[C@H](Cc2ccccc2)NC(=O)[C@H](CC(C)C)N2C(=O)c3ccccc3C2=O)cc1		0.019 µM
Cc1ccnc(C)c1OCC(=O)N[C@@H](Cc1ccccc1)C[C@H](O)[C@H](Cc1ccccc1)NC(=O)O[C@H]1CO[C@H]2OCC[C@H]21		~0.0005 µM
CC(=O)ONc1ccc(S(=O)(=O)N(CC(C)C)C[C@@H](O)[C@H](Cc2ccccc2)NC(=O)[C@H](C(C)C)N2C(=O)c3ccccc3C2=O)cc1		0.016 µM
CC(=O)N(CC[C@@H](O)[C@H](Cc1ccccc1)NC(=O)c1cccc(O)c1C)[C@@H](Cc1ccccc1)C(=O)N1CCCC1		5 µM
CC(=O)ONc1ccc(S(=O)(=O)N(CC(C)C)C[C@@H](O)[C@H](Cc2ccccc2)NC(=O)CCCN2C(=O)c3ccccc3C2=O)cc1		>0.1 µM
Cc1cccc(C)c1NCC(=O)N[C@@H](Cc1ccccc1)C[C@H](O)[C@H](Cc1ccccc1)NC(=O)O[C@H]1CO[C@H]2OCC[C@H]21		<0.0005 µM
CC(=O)N[C@@H](Cc1cccc2ccccc12)C(=O)N[C@@H](Cc1cnc[nH]1)C(=O)N[C@@H](CC(C)C)[C@@H](O)CC(=O)N[C@@H](CC(C)C)C(=O)N[C@@H](Cc1ccccc1)C(N)=O		7.2 µM
CCOC(=O)Cc1ccc(-c2cc(O)c(SCCc3ccccc3)c(=O)o2)cc1		0.57 µM
Cc1ccc(S(=O)(=O)N(CC[C@@H](O)[C@H](Cc2ccccc2)NC(=O)c2cccc(O)c2C)C(C)C)cc1		1.5 µM
C[C@H]1CC[C@H](C(F)(F)F)N1C[C@@H](O)[C@H](Cc1ccccc1)NC(=O)[C@H](CC(N)=O)NC(=O)c1ccc2ccccc2n1		0.00002 µM
CC(C)CCCC(C)[C@H]1CCC2C3CC[C@H]4C[C@@H](CCC=C(c5cc(Cl)c(OCc6ccccc6B(O)O)c(C(=O)O)c5)c5cc(Cl)c(OCc6ccccc6B(O)O)c(C(=O)O)c5)CC[C@]4(C)C3CC[C@@]21C		0.0014 µM
Cc1cc(NS(C)(=O)=O)cc(C)c1OCC(=O)N[C@@H](Cc1ccccc1)[C@@H](O)C[C@H](Cc1ccccc1)NC(=O)O[C@H]1CO[C@H]2OCC[C@H]21		0.012 µM
CC(C)(C)N[C@@H](Cc1ccccc1)[C@H](O)[C@@H](O)[C@H](Cc1ccccc1)NC(=O)[C@H](NC(=O)COc1ccccc1)c1cccs1		0.3 µM
CC(C)(C)NC(=O)[C@@H]1CCCN1C(=O)[C@@H](O)[C@H](CC1CCCCC1)NC(=O)[C@H](CC(N)=O)NC(=O)OCC1c2ccccc2-c2ccccc21		~0.05 µM
O=C(COc1ccccc1)N[C@@H](Cc1ccccc1)[C@H](O)[C@@H](O)[C@H](Cc1ccccc1)NC(=O)COc1ccccc1		1 µM
CC(=O)N[C@@H](Cc1ccccc1)C(=O)N[C@H](C(=O)N[C@@H](CC(C)C)[C@@H](O)CC(=O)N[C@@H](CC(C)C)C(=O)N[C@@H](Cc1ccccc1)C(N)=O)C(C)C		0.09 µM
Cc1cccc(CO)c1OCC(=O)N[C@@H](Cc1ccccc1)C[C@H](O)[C@H](Cc1ccccc1)NC(=O)O[C@H]1CO[C@H]2OCC[C@H]21		<0.0005 µM
Cc1cc(F)cc(C)c1OCC(=O)N[C@@H](Cc1ccccc1)[C@@H](O)C[C@H](Cc1ccccc1)NC(=O)[C@H](C(C)C)N1CCCNC1=O		<0.0005 µM
COc1cccc(C)c1OCC(=O)N[C@@H](Cc1ccccc1)C[C@H](O)[C@H](Cc1ccccc1)NC(=O)O[C@H]1CO[C@H]2OCC[C@H]21		<0.0005 µM
CC(=O)N(CC[C@@H](O)[C@H](Cc1ccccc1)NC(=O)c1cccc(O)c1C)[C@@H](Cc1ccccc1)C(=O)NC1CCCCC1		100 µM
CN=S(=O)(C[C@@H](Cc1ccccc1)C(=O)N[C@H]1c2ccccc2C[C@H]1O)C[C@@H](Cc1ccccc1)C(=O)N[C@H]1c2ccccc2C[C@H]1O		0.46 µM
CC(C)[C@H](NC(=O)[C@H](Cc1cccc2ccccc12)CS(=O)(=O)C(C)(C)C)C(=O)N[C@@H](Cc1ccccc1)[C@@H](O)C(O)CN1CCCC[C@H]1C(F)(F)F		0.1 µM
Cc1ccccc1OCC(=O)N[C@@H](Cc1ccccc1)C[C@H](O)[C@H](Cc1ccccc1)NC(=O)O[C@H]1CO[C@H]2OCC[C@H]21		<0.0005 µM
CC(C)CCN(C[C@@H](O)[C@H](Cc1ccccc1)NC(=O)OCc1ccccc1)S(=O)(=O)c1ccc(F)cc1		0.03 µM
CC(=O)ONc1ccc(S(=O)(=O)N(CC(C)C)C[C@@H](O)[C@H](Cc2ccccc2)NC(=O)COc2ccc3ccccc3c2)cc1		0.069 µM
Cc1ncnc(C)c1OCC(=O)N[C@@H](Cc1ccccc1)[C@@H](O)C[C@H](Cc1ccccc1)NC(=O)[C@H](C(C)C)N1CCCNC1=O		<0.0005 µM
CC(=O)ONc1ccc(S(=O)(=O)N(Cc2ccccc2)C[C@@H](O)[C@H](Cc2ccccc2)NC(=O)CCN2C(=O)c3ccccc3C2=O)cc1		0.056 µM
CC(C)(C)OC(=O)N[C@@H](CO)C(=O)N[C@@H](Cc1ccccc1)[C@H](O)C(=O)NCC1CCCCC1		<1000 µM
COc1ccc(S(=O)(=O)N(CC(C)C)C[C@@H](O)[C@H](Cc2ccccc2)NC(=O)c2ccccc2CS(C)(=O)=O)cc1		<1 µM
CC(C)[C@H](N)C(=O)N[C@H](C(=O)N[C@@H](Cc1ccccc1)[C@@H](O)C(=O)N(CC(=O)N[C@H](C(=O)N[C@H](C(N)=O)C(C)C)C(C)C)Cc1ccccc1)C(C)C		<1000 µM
Cc1cccc(C)c1OCC(=O)N[C@@H](Cc1ccccc1)[C@@H](O)C[C@H](Cc1ccccc1)NC(=O)O[C@H]1CO[C@H]2OCC[C@H]21		<0.0005 µM
CC(=O)N(CC[C@@H](O)[C@H](Cc1ccccc1)NC(=O)c1cccc(O)c1C)[C@H](Cc1ccccc1)C(=O)NC(C)(C)C		3.6 µM
CC(=O)Nc1ccc(SSc2ccc(NC(C)=O)cc2C(N)=O)c(C(N)=O)c1		>100 µM
Cc1c(O)cccc1C(=O)N[C@@H](c1ccc(-c2cccs2)cc1)[C@H](O)CN1C[C@H]2CCCC[C@H]2C[C@H]1C(=O)NC(C)(C)C		4 µM
Cc1c(O)cccc1C(=O)N[C@@H](Cc1ccccc1)[C@H](O)CCN(Cc1ccccc1)[C@@H](Cc1ccccc1)C(=O)NC(C)(C)C		4.3 µM
CC(=O)Nc1ccc(S(=O)(=O)N(CC(C)C)C[C@@H](O)[C@H](CCc2ccccc2)NC(=O)Cn2c(=O)oc3ccccc32)cc1		0.005 µM
Cc1cc(C)c(OCC(=O)N[C@@H](Cc2ccccc2)[C@@H](O)C[C@H](Cc2ccccc2)NC(=O)[C@H](C(C)C)N2CCCNC2=O)c(C)c1		<0.0005 µM
C=CC(C)(C)c1[nH]c2ccccc2c1C1=C(O)C(=O)C(c2c(C(C)(C)C=C)[nH]c3ccccc23)=C(O)C1=O	WT	2.5 µM
CC(C)[C@H](NC(=O)[C@H](Cc1cccc2ccccc12)CS(=O)(=O)C(C)(C)C)C(=O)N[C@@H](Cc1ccccc1)[C@@H](O)C(O)CN1CCC[C@H]1C(F)(F)F		0.05 µM
COc1ccc(S(=O)(=O)N(CC(C)C)C[C@@H](O)[C@H](Cc2ccccc2)NC(=O)c2ccc(CS(C)(=O)=O)cc2)cc1		<1 µM
CC(=O)ONc1ccc(S(=O)(=O)N(CC(C)C)C[C@@H](O)[C@H](Cc2ccccc2)NC(=O)CCN2C(=O)c3ccccc3C2=O)cc1		0.025 µM
C[C@@H](C(=O)NC(C)(C)C)n1nnnc1C[C@H](Cc1ccccc1)NC(=O)[C@H](CC(N)=O)NC(=O)c1ccc2ccccc2n1		170 ± 20 µM
CC[C@H](C)[C@H](NC(=O)[C@@H](NC(=O)[C@H](Cc1ccccc1)NC(C)=O)[C@@H](C)CC)[C@H](O)[C@@H](O)[C@H](CC1CCCCC1)NC(=O)[C@H](CCC(=O)O)NC(=O)[C@H](Cc1ccccc1)NC(C)=O		0.35 µM
CC(=O)N(CC[C@@H](O)[C@H](Cc1ccccc1)NC(=O)c1cccc(O)c1C)[C@@H](Cc1ccccc1)C(=O)NCc1ccccc1C		1.8 µM
CC(C)CCCC(C)[C@H]1CCC2C3CC[C@H]4C[C@@H](CCC=C(c5cc(Cl)c(OCc6cccc(B(O)O)c6)c(C(=O)O)c5)c5cc(Cl)c(OCc6cccc(B(O)O)c6)c(C(=O)O)c5)CC[C@]4(C)C3CC[C@@]21C		<0.00025 µM
CC(C)C[C@H](NC(=O)C[C@H](O)[C@H](CC(C)C)NC(=O)[C@@H](NC(=O)c1ccc2ccccc2n1)C(C)C)C(=O)N[C@@H](Cc1ccccc1)C(N)=O		3.65 µM
CC[C@@H](C)[C@H](NC(=O)[C@@H]1CCCN1C(=O)[C@@H](O)[C@H](CC1CCCCC1)NC(=O)[C@H](CC(N)=O)NC(=O)OCC1c2ccccc2-c2ccccc21)C(=O)N[C@H](C(N)=O)C(C)C		<5 µM
COC(=O)N1C2C3C4N(C(=O)OC)C5C(C1C5(CO)[C@H]3c1ccccc1)[C@@H](c1ccccc1)C24CO		0.18 µM
CC(=O)ONc1ccc(S(=O)(=O)N(Cc2ccccc2)C[C@@H](O)[C@H](Cc2ccccc2)NC(=O)CCc2c[nH]c3ccccc23)cc1		>0.1 µM
CC(C)[C@H](NC(=O)[C@H](Cc1cccc2ccccc12)CS(=O)(=O)C(C)(C)C)C(=O)N[C@@H](Cc1ccccc1)[C@@H](O)CN1[C@H](C)CC[C@H]1C(F)(F)F		0.005 µM
C[C@H](C(=O)NC(C)(C)C)n1nnnc1C[C@H](Cc1ccccc1)NC(=O)[C@H](CC(N)=O)NC(=O)c1ccc2ccccc2n1		300 ± 10 µM
CC(C)(C)S(=O)(=O)C[C@@H](Cc1cccc2ccccc12)C(=O)N[C@@H](CC(N)=O)C(=O)N[C@@H](Cc1ccccc1)[C@H](O)C(O)CN1CCC[C@H]1C(F)(F)F		0.01 µM
CC[C@H](C)[C@H](NC(=O)[C@@H]1CCCN1C(=O)[C@@H](O)[C@H](Cc1ccccc1)NC(=O)[C@H](CC(N)=O)NC(=O)CCc1ccccc1)C(=O)N[C@H](C(N)=O)C(C)C		<5 µM
CC(=O)N[C@@H](Cc1ccccc1)C(=O)N[C@@H](CC(C)C)C(=O)N[C@@H](CC(C)C)[C@@H](O)CC(=O)N[C@@H](CC(C)C)C(=O)N[C@@H](Cc1ccccc1)C(N)=O		~10 µM
CC(C)(C)NC(=O)[C@H]1N(C(=O)[C@@H](O)[C@H](Cc2ccccc2)NC(=O)[C@H](CS(C)(=O)=O)NC(=O)COc2cccc3ccccc23)CCC1(C)C		<0.05 µM
Cc1cccc(C)c1CCC(=O)N[C@@H](Cc1ccccc1)[C@@H](O)C[C@H](Cc1ccccc1)NC(=O)[C@H](C(C)C)N1CCCNC1=O		<0.0005 µM

7 of the rows above, restated:

structure	strain or isolate	result
CC(C)(C)N[C@@H](Cc1ccccc1)[C@H](O)[C@@H](O)[C@H](Cc1ccccc1)NC(=O)[C@H](NC(=O)COc1ccccc1)c1cccs1		0.3 µM
CC(C)CCCC(C)[C@H]1CCC2C3CC[C@H]4C[C@@H](CCC=C(c5cc(Cl)c(OCc6ccccc6B(O)O)c(C(=O)O)c5)c5cc(Cl)c(OCc6ccccc6B(O)O)c(C(=O)O)c5)CC[C@]4(C)C3CC[C@@]21C		0.0014 µM
CC(=O)N[C@@H](Cc1ccccc1)C(=O)N[C@@H](CC(C)C)C(=O)N[C@@H](CC(C)C)[C@@H](O)CC(=O)N[C@@H](CC(C)C)C(=O)N[C@@H](Cc1ccccc1)C(N)=O		~10 µM
Cc1ccc(S(=O)(=O)N(CC[C@@H](O)[C@H](Cc2ccccc2)NC(=O)c2cccc(O)c2C)C(C)C)cc1		1.5 µM
CC(=O)ONc1ccc(S(=O)(=O)N(Cc2ccccc2)C[C@@H](O)[C@H](Cc2ccccc2)NC(=O)CCc2c[nH]c3ccccc23)cc1		>0.1 µM
CC[C@@H](C)[C@H](NC(=O)[C@@H]1CCCN1C(=O)[C@@H](O)[C@H](CC1CCCCC1)NC(=O)[C@H](CC(N)=O)NC(=O)OCC1c2ccccc2-c2ccccc21)C(=O)N[C@H](C(N)=O)C(C)C		<5 µM
CC(C)(C)OC(=O)N[C@@H](CO)C(=O)N[C@@H](Cc1ccccc1)[C@H](O)C(=O)NCC1CCCCC1		<1000 µM